Measurements reported in PubChem BioAssay AID1259414 (Drosophila RNAi Screening Center, 2018)
Aim: 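Host factors increasing or decreasing Wolbachia levels in cultured fly cells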 (primary screen). Cell system: Drosophila JW18 cells infected with Wolbachia. Knock-down reagent: long dsRNA against Drosophila genes, 0.25 µg dsRNA per well of a 384-well plate. Duration: 5 days. Conditions: cells persistently infected with Wolbachia before knock-down; no added drug. Measured: 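Imaged fluorescence in situ signal for Wolbachia 23S rRNA per DAPI-counted host cell, given as a robust z-score within each plate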. Reading the numbers: Wolbachia per cell robust z: higher = more Wolbachia per host cell than the plate typical. Active means: 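Hit when robust z is 1.5 or more, or -1.5 or less, in at least two of three replicates; excludes dsRNAs with several or no targets, genes not expressed in JW18 and well A1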.
The deposit covers about 24,000 reagents; this is an unselected part of those with a known target gene and a result. In the full data, about 1,210 (5%) are marked active. 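Inactive calls also include excluded dsRNAs with several or no targets, genes unexpressed in JW18, and well A1, regardless of score.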 Names joined by + are all predicted targets of the reagent. No sequences are given here.

{"gene knocked down": "l(2)SH0834 (lethal (2) SH0834)", "dsRNA": "DRSC02854", "Wolbachia per cell robust z, rep 1": -0.407, "Wolbachia per cell robust z, rep 2": 0.0116, "Wolbachia per cell robust z, rep 3": 1.91, "activity call": "inactive"}
{"gene knocked down": "app (approximated)", "dsRNA": "DRSC09159", "Wolbachia per cell robust z, rep 1": -0.358, "Wolbachia per cell robust z, rep 2": 0.0384, "Wolbachia per cell robust z, rep 3": 0.674, "activity call": "inactive"}
{"gene knocked down": "app (approximated)", "dsRNA": "DRSC10246", "Wolbachia per cell robust z, rep 1": 0.896, "Wolbachia per cell robust z, rep 2": 0.236, "Wolbachia per cell robust z, rep 3": 0.897, "activity call": "inactive"}
{"gene knocked down": "app (approximated)", "dsRNA": "DRSC10526", "Wolbachia per cell robust z, rep 1": -0.302, "Wolbachia per cell robust z, rep 2": 0.247, "Wolbachia per cell robust z, rep 3": 0.455, "activity call": "inactive"}
{"gene knocked down": "app (approximated)", "dsRNA": "DRSC25682", "Wolbachia per cell robust z, rep 1": -1.03, "Wolbachia per cell robust z, rep 2": -0.0661, "Wolbachia per cell robust z, rep 3": 0.479, "activity call": "inactive"}
{"gene knocked down": "Ldsdh1 (Lipid droplet subset dehydrogenase 1)", "dsRNA": "DRSC18219", "Wolbachia per cell robust z, rep 1": -3.09, "Wolbachia per cell robust z, rep 2": 0.272, "Wolbachia per cell robust z, rep 3": -0.86, "activity call": "inactive"}
{"gene knocked down": "Ldsdh1 (Lipid droplet subset dehydrogenase 1)", "dsRNA": "DRSC26664", "Wolbachia per cell robust z, rep 1": 0.74, "Wolbachia per cell robust z, rep 2": 0.157, "Wolbachia per cell robust z, rep 3": 0.217, "activity call": "inactive"}
{"gene knocked down": "RabGGTa (Rab geranylgeranyltransferase subunit alpha)", "dsRNA": "DRSC12189", "Wolbachia per cell robust z, rep 1": 0.261, "Wolbachia per cell robust z, rep 2": 0.523, "Wolbachia per cell robust z, rep 3": -1.08, "activity call": "inactive"}
{"gene knocked down": "Cmpk (Cytidine/uridine monophosphate kinase 1)", "dsRNA": "DRSC16643", "Wolbachia per cell robust z, rep 1": 1.37, "Wolbachia per cell robust z, rep 2": 0.652, "Wolbachia per cell robust z, rep 3": 0.592, "activity call": "inactive"}
{"gene knocked down": "mod(mdg4) + pre-mod(mdg4)-Z + pre-mod(mdg4)-T", "dsRNA": "DRSC13477", "Wolbachia per cell robust z, rep 1": 1.7, "Wolbachia per cell robust z, rep 2": 1.52, "Wolbachia per cell robust z, rep 3": 1.14, "activity call": "inactive"}
{"gene knocked down": "mod(mdg4) + pre-mod(mdg4)-Z + pre-mod(mdg4)-T", "dsRNA": "DRSC17001", "Wolbachia per cell robust z, rep 1": -2.93, "Wolbachia per cell robust z, rep 2": 0.113, "Wolbachia per cell robust z, rep 3": 0.689, "activity call": "inactive"}
{"gene knocked down": "TM4SF (Transmembrane 4 superfamily)", "dsRNA": "DRSC04661", "Wolbachia per cell robust z, rep 1": 0.554, "Wolbachia per cell robust z, rep 2": -0.131, "Wolbachia per cell robust z, rep 3": -5.27, "activity call": "inactive"}
{"gene knocked down": "spn-A (spindle A)", "dsRNA": "DRSC16812", "Wolbachia per cell robust z, rep 1": 0.0251, "Wolbachia per cell robust z, rep 2": 1.22, "Wolbachia per cell robust z, rep 3": 0.678, "activity call": "inactive"}
{"gene knocked down": "CR31953 + gkt", "dsRNA": "DRSC00709", "Wolbachia per cell robust z, rep 1": -6.1, "Wolbachia per cell robust z, rep 2": -5.1, "Wolbachia per cell robust z, rep 3": -0.78, "activity call": "active"}
{"gene knocked down": "Tpi (Triose phosphate isomerase)", "dsRNA": "DRSC16888", "Wolbachia per cell robust z, rep 1": -0.971, "Wolbachia per cell robust z, rep 2": -0.465, "Wolbachia per cell robust z, rep 3": -0.508, "activity call": "inactive"}
{"gene knocked down": "Tpi (Triose phosphate isomerase)", "dsRNA": "DRSC40710", "Wolbachia per cell robust z, rep 1": 0.105, "Wolbachia per cell robust z, rep 2": -0.967, "Wolbachia per cell robust z, rep 3": -0.266, "activity call": "inactive"}
{"gene knocked down": "AlkB", "dsRNA": "DRSC19115", "Wolbachia per cell robust z, rep 1": 1.19, "Wolbachia per cell robust z, rep 2": -0.135, "Wolbachia per cell robust z, rep 3": -2, "activity call": "inactive"}
{"gene knocked down": "Lip1 (Lipase 1)", "dsRNA": "DRSC03364", "Wolbachia per cell robust z, rep 1": -0.358, "Wolbachia per cell robust z, rep 2": 0.664, "Wolbachia per cell robust z, rep 3": -0.807, "activity call": "inactive"}
{"gene knocked down": "CG32428", "dsRNA": "DRSC11697", "Wolbachia per cell robust z, rep 1": 1.13, "Wolbachia per cell robust z, rep 2": 1.92, "Wolbachia per cell robust z, rep 3": 1.47, "activity call": "inactive"}
{"gene knocked down": "CG32428", "dsRNA": "DRSC11768", "Wolbachia per cell robust z, rep 1": -0.339, "Wolbachia per cell robust z, rep 2": 0.526, "Wolbachia per cell robust z, rep 3": -0.862, "activity call": "inactive"}
{"gene knocked down": "CG32428", "dsRNA": "DRSC25993", "Wolbachia per cell robust z, rep 1": -0.788, "Wolbachia per cell robust z, rep 2": -0.778, "Wolbachia per cell robust z, rep 3": -2.08, "activity call": "inactive"}
{"gene knocked down": "Cka (Connector of kinase to AP-1)", "dsRNA": "DRSC03476", "Wolbachia per cell robust z, rep 1": -2.15, "Wolbachia per cell robust z, rep 2": -0.291, "Wolbachia per cell robust z, rep 3": 0.0441, "activity call": "inactive"}
{"gene knocked down": "Cka (Connector of kinase to AP-1)", "dsRNA": "DRSC22858", "Wolbachia per cell robust z, rep 1": 0.727, "Wolbachia per cell robust z, rep 2": 1.44, "Wolbachia per cell robust z, rep 3": 0.645, "activity call": "inactive"}
{"gene knocked down": "CG12104", "dsRNA": "DRSC08254", "Wolbachia per cell robust z, rep 1": 0.672, "Wolbachia per cell robust z, rep 2": 0.886, "Wolbachia per cell robust z, rep 3": 0.737, "activity call": "inactive"}
{"gene knocked down": "CG12104", "dsRNA": "DRSC26773", "Wolbachia per cell robust z, rep 1": 0.0313, "Wolbachia per cell robust z, rep 2": -0.403, "Wolbachia per cell robust z, rep 3": 1.35, "activity call": "inactive"}
{"gene knocked down": "CG7407", "dsRNA": "DRSC11824", "Wolbachia per cell robust z, rep 1": 0.869, "Wolbachia per cell robust z, rep 2": 0.708, "Wolbachia per cell robust z, rep 3": 0.308, "activity call": "inactive"}
{"gene knocked down": "mbo (members only)", "dsRNA": "DRSC16123", "Wolbachia per cell robust z, rep 1": -0.287, "Wolbachia per cell robust z, rep 2": -0.931, "Wolbachia per cell robust z, rep 3": 0.372, "activity call": "inactive"}
{"gene knocked down": "Snup + CG42304", "dsRNA": "DRSC08276", "Wolbachia per cell robust z, rep 1": -0.905, "Wolbachia per cell robust z, rep 2": -2.78, "Wolbachia per cell robust z, rep 3": -0.235, "activity call": "inactive"}
{"gene knocked down": "Snup + CG42304", "dsRNA": "DRSC22781", "Wolbachia per cell robust z, rep 1": -2.4, "Wolbachia per cell robust z, rep 2": -0.177, "Wolbachia per cell robust z, rep 3": -2.08, "activity call": "inactive"}
{"gene knocked down": "kni (knirps)", "dsRNA": "DRSC23093", "Wolbachia per cell robust z, rep 1": 0.13, "Wolbachia per cell robust z, rep 2": 0.234, "Wolbachia per cell robust z, rep 3": 0.596, "activity call": "inactive"}
{"gene knocked down": "kni (knirps)", "dsRNA": "DRSC29974", "Wolbachia per cell robust z, rep 1": 0.109, "Wolbachia per cell robust z, rep 2": 0.677, "Wolbachia per cell robust z, rep 3": 0.21, "activity call": "inactive"}
{"gene knocked down": "kni (knirps)", "dsRNA": "DRSC41376", "Wolbachia per cell robust z, rep 1": -0.262, "Wolbachia per cell robust z, rep 2": 0.107, "Wolbachia per cell robust z, rep 3": -1.7, "activity call": "inactive"}

An excerpt from above, showing only “Wolbachia per cell robust z, rep 3”:
Ldsdh1 (Lipid droplet subset dehydrogenase 1) [DRSC18219] = -0.86
Ldsdh1 (Lipid droplet subset dehydrogenase 1) [DRSC26664] = 0.217
RabGGTa (Rab geranylgeranyltransferase subunit alpha) [DRSC12189] = -1.08
Cmpk (Cytidine/uridine monophosphate kinase 1) [DRSC16643] = 0.592
mod(mdg4) + pre-mod(mdg4)-Z + pre-mod(mdg4)-T [DRSC13477] = 1.14
